Tests used:
[1] = test system: Dd2-Polδ-PfATP4^G358S parasites; experiment: P. falciparum proliferation assay (72 h, fluorescent DNA-intercalating dye); assay type: cell-based, Plasmodium falciparum; details: Dd2-Polδ-PfATP4G358S vs Dd2-Polδ; mean ± SEM
Method: For experiments with all other parasites, the effects of compounds of interest on parasite proliferation was measured in 96-well plates containing serial dilutions of the compounds in culture medium, with a fluorescent DNA-intercalating dye used to detect surviving parasites. The assays were initiated with erythrocytes infected with predominantly ring-stage parasites, and the starting parasitaemia and haematocrit were both 1%.

[2] = test system: Dd2-B2-PfATP4^G358S parasites; experiment: P. falciparum proliferation assay (72 h, flow cytometry, SYBR Green I/MitoTracker); assay type: cell-based, Plasmodium falciparum; details: Dd2-B2-PfATP4G358S vs Dd2-B2
Method: Two types of parasite proliferation assays were employed in this study, with both yielding highly consistent results. For the NF54-based lines and Dd2-B2-PfATP4^G358S and its parent, assays were initiated with cultures containing predominantly ring-stage parasites with a parasitaemia of 0.3% and a haematocrit of 1%. All assays using NF54 were performed in culture media containing 10% O + human serum. The duration of the assays was 72 h and the concentration of DMSO was <0.5% (v/v). Serial dilutions of the test compounds were performed using a Tecan D300e digital dispenser, with parasite cultures added manually. Parasite survival was assessed by flow cytometry on an Intellicyt iQue3 (Essen Bioscience), with 1× SYBR Green I (Invitrogen) and 200 nM MitoTracker Deep Red FM (Invitrogen) used to stain the nucleus and the mitochondria in live parasites, respectively. The gating strategy used to quantify parasite survival, performed using FlowJo version 10 (FlowJo LLC.), is illustrated in Supplementary Fig. 9. IC50 and IC90 values were calculated by linear interpolation of the dose-response data.

[3] = test system: isolated Dd2-Polδ-PfATP4^G358S P. falciparum trophozoites; experiment: [Na+]cyt measurement (SBFI), Na+ dysregulation; assay type: cell-based, Plasmodium falciparum; details: Dd2-Polδ-PfATP4G358S vs Dd2-Polδ; estimated
Method: The ratio of the fluorescence intensity recorded at 340 nm and 380 nm (with an emission wavelength of 515 nm) was converted to [Na^+]cyt using a calibration procedure that entailed suspending parasites in solutions of varying [Na^+] containing ionophores. Fluorescence measurements and calibrations were performed at 37 °C, either with individual 1 mL suspensions using a PerkinElmer LS 50B fluorescence spectrometer (for resting [Na^+]cyt measurements for which the data are shown in Supplementary Fig. 7) or in 96-well plates using a Tecan Infinite M1000 PRO plate reader with i-control (version 1.12) software (all other [Na^+]cyt measurements).

[4] = test system: Dd2-B2-PfATP4^G358S parasites; details: Dd2-B2-PfATP4G358S; cited from earlier work

SMILES | IC50 fold higher than that of Dd2-Polδ parent [1] | IC50 fold higher than for Dd2-B2 parent [2] | IC50 for [Na+]cyt dysregulation, fold higher than in parental Dd2-Polδ [3] | fold resistance earlier reported [4]
N#Cc1cc(NC(=O)[C@H]2c3ccccc3C(=O)N(CC(F)(F)F)[C@@H]2c2cccnc2)ccc1F [(+)-SJ733] | 237 ± 51 fold | 186 ± 18 fold | > 180 fold | 5 fold
C[C@H]1Cc2c([nH]c3cc(Cl)c(F)cc23)[C@@]2(N1)C(=O)Nc1ccc(Cl)cc12 [Cipargamin] | 1082 ± 138 fold | 795 ± 98 fold | > 230 fold | 

Source: PMC9525273
